From article PMC12621019, “Restructuring Antiviral Quinazolinone Frameworks to Derive and Optimize Inhibitors of Chikungunya Virus” (ACS Medicinal Chemistry Letters, 2025) come the findings set out here.

Like-named read-outs stand apart in the source and are kept apart here.

Test [1] has as its system chikungunya virus strain 181/25.
Test [2] has the same test system. Nature of the test: microbe, parasite or virus in culture. Particulars: Vero C1008, read-out: EC50 (capsid protein, high-content confocal imaging).

Consider `COc1c(F)cc(-n2c([C@H]3CCCCN3)nc3cc(N4CCN(C(C)C)CC4)c(Cl)cc3c2=O)cc1F` [(R)-1h], for which, in test [1], the “effect on CHIKV induced cell death (confocal microscopy)” value was “dose-dependent protective effect”. Besides, the EC50 in test [1] (read-out: EC50 (capsid protein, high-content confocal imaging)) was found to be 6.02 µM; in test [2] it was 6 µM.
